Results deposited as PubChem BioAssay AID624099 (ICCB-Longwood, 2012)

Screen: 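Human genes that papillomavirus E2 requires to repress the HPV18 LCR promoter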 (primary screen)
System: human C33A cervical carcinoma cells (HPV-negative) stably expressing BPV1 E2 and an HPV18 LCR luciferase reporter
Reagents: siRNA pool against human genes, 40 nM
Duration: 72 h
Read-out: 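Per-well luciferase luminescence, z-scored on each plate against the plate mean and SD with control wells left out, then averaged across three replicate plates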
Reading the numbers: mean z-score and z-score: higher = stronger reporter signal, weaker E2 silencing
Hit rule: 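Mean z ≥ 2 together with z ≥ 2 in two or more of the three replicates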
The whole screen tested about 21,000 reagents; this is a random part of them. Of all reagents, 497 (2.4%) got an active call. 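Higher z means weaker E2 silencing; only reporter increases were scored, and knock-downs that hurt cell survival may mask genuine repressor factors.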 Reagents against one gene are numbered here.

no.	gene	reagent no.	mean z-score	z-score, replicate A	z-score, replicate B	z-score, replicate C	call
1	IFT52	1	-0.18	-0.29	-0.38	0.13	inactive
2	TAT	1	0.74	0.71	0.81	0.69	inactive
3	DRAM1	1	0.18	0.14	0.02	0.37	inactive
4	OR5B3	1	-3.6	-4.03	-3.38	-3.4	inactive
5	GABRA5	1	0.65	0.63	0.4	0.91	inactive
6	RUSC1-AS1	1	-3.47	-3.74	-3.26	-3.41	inactive
7	ST13P4	1	0.47	0.96	-0.02	0.46	inactive
8	TBC1D3P1-DHX40P1	1	0.37	0.36	0.36	0.38	inactive
9	WDR47	1	-0.68	-0.92	-0.55	-0.57	inactive
10	STRIP2	1	-1.36	-1.39	-1.3	-1.38	inactive
11	ERI1	1	-0.48	-0.62	-0.15	-0.66	inactive
12	SHANK3	1	-0.89	-1.09	-0.84	-0.74	inactive
13	DNM1L	1	0.07	0.03	0.09	0.1	inactive
14	C11orf86	1	0.07	-0.1	0.18	0.15	inactive
15	BMAL1	1	0.21	0.23	0.19	0.21	inactive
16	ADAM3B	1	0.51	0.22	0.57	0.74	inactive
17	SLX1B	1	1.46	1.14	1.67	1.57	inactive
18	RFX6	1	0.52	0.75	0.29	0.61	inactive
19	RBMY1D	1	-0.37	-0.8	0	-0.3	inactive
20	AMER1	1	-0.02	-0.16	0.21	-0.1	inactive
21	PTPRK	1	-0.45	-0.27	-0.53	-0.56	inactive
22	GNB1	1	0.12	0.25	-0.05	0.16	inactive
23	LOC200493 (retired record)	1	1.85	1.68	1.9	1.97	inactive
24	RGR	1	1.54	2.09	1.23	1.29	inactive
25	MROH2A	1	-1.33	-1.32	-1.23	-1.44	inactive
26	LOC158825 (retired record)	1	-0.23	0.23	-0.19	-0.72	inactive
27	PHYHIP	1	-0.65	-0.53	-0.77	-0.66	inactive
28	TCEAL8	1	0.88	0.55	0.95	1.15	inactive
29	CATSPERE	1	-0.31	-0.07	0.01	-0.88	inactive
30	ID4	1	0.56	0.73	0.28	0.66	inactive
31	CCL5	1	0.18	0.17	0.16	0.2	inactive
32	KLRG1	1	1.16	1.08	1.11	1.28	inactive
33	CRIPAK (retired record)	1	-0.43	-0.28	-0.46	-0.56	inactive
34	FECH	1	0.99	0.86	0.92	1.18	inactive
35	INHBE	1	0.44	0.36	0.82	0.15	inactive
36	NFIC	1	0.71	0.4	0.93	0.81	inactive
37	GREB1L	1	0.88	0.75	1.14	0.76	inactive
38	NARF	1	0.29	0.33	0.31	0.23	inactive
39	S100G	1	1.42	1.21	1.44	1.62	inactive
40	ZNF547	1	-1.8	-1.55	-2.03	-1.81	inactive
41	SLC34A3	1	-0.19	0.24	-0.72	-0.1	inactive
42	ATL3	1	1.08	0.82	1.14	1.28	inactive
43	ATL3	2	0.24	0.29	0.22	0.2	inactive
44	PHF24	1	0.21	0.09	0.37	0.18	inactive
45	DEPDC4	1	1.77	2.07	1.61	1.63	inactive
46	PTPRVP	1	1.83	1.48	2.3	1.72	inactive
47	XPO7	1	0.63	0.22	0.71	0.97	inactive
48	KLRD1	1	1.19	1.4	1.01	1.16	inactive
49	WDSUB1	1	0.23	0.21	0.38	0.1	inactive
50	PXK	1	0.53	0.28	0.79	0.53	inactive
51	SGTA	1	0.41	0.54	0.16	0.53	inactive
52	SLX4IP	1	-0.27	-0.06	-0.58	-0.16	inactive
53	ZNF33B	1	-0.03	0.07	-0.04	-0.12	inactive
54	ATP8B1	1	0.31	0.12	0.34	0.48	inactive
55	GNAZ	1	-0.84	-1.12	-0.51	-0.87	inactive
56	GCM1	1	-1.61	-1.61	-1.53	-1.68	inactive
57	USB1	1	-0.23	-0.13	-0.07	-0.5	inactive
58	MCFD2	1	-0.02	0.22	-0.46	0.19	inactive
59	KCNB2	1	0.45	0.85	0.03	0.46	inactive
60	MPDU1	1	0.84	0.88	0.91	0.73	inactive
61	GGT6	1	-0.69	-0.74	-0.75	-0.6	inactive
62	CSTF2T	1	0.07	0.1	-0.07	0.17	inactive
63	TUBB3	1	0.06	0.11	-0.03	0.1	inactive
64	CHMP3	1	-0.34	-0.17	-0.37	-0.46	inactive
65	BAGE	1	1.28	0.74	1.49	1.6	inactive
66	TTC21B	1	-1.09	-0.98	-1.31	-0.98	inactive
67	PCDH17	1	-1.7	-1.42	-1.78	-1.89	inactive
68	CALML5	1	-0.33	-0.4	-0.25	-0.33	inactive
69	UPB1	1	-0.63	-0.28	-0.93	-0.68	inactive
70	FBXL16	1	-0.55	-0.53	-1.04	-0.09	inactive
71	GRP	1	-0.53	-0.54	-0.43	-0.62	inactive
72	DDX5	1	0.17	0.52	0	0.01	inactive
73	CPOX	1	0.61	0.43	0.67	0.73	inactive

Laid out differently: entries from further up.
gene | reagent no. | mean z-score | z-score, replicate A | z-score, replicate B | z-score, replicate C | call
SGTA | 1 | 0.41 | 0.54 | 0.16 | 0.53 | inactive
SLX4IP | 1 | -0.27 | -0.06 | -0.58 | -0.16 | inactive
ZNF33B | 1 | -0.03 | 0.07 | -0.04 | -0.12 | inactive
ATP8B1 | 1 | 0.31 | 0.12 | 0.34 | 0.48 | inactive
GNAZ | 1 | -0.84 | -1.12 | -0.51 | -0.87 | inactive
GCM1 | 1 | -1.61 | -1.61 | -1.53 | -1.68 | inactive
USB1 | 1 | -0.23 | -0.13 | -0.07 | -0.5 | inactive
MCFD2 | 1 | -0.02 | 0.22 | -0.46 | 0.19 | inactive
KCNB2 | 1 | 0.45 | 0.85 | 0.03 | 0.46 | inactive
MPDU1 | 1 | 0.84 | 0.88 | 0.91 | 0.73 | inactive
